## PSTVd loop 6 mutant pool in Nicotiana benthamiana

Region: loop 6 of PSTVd (intermediate strain), upper and lower strand joined, each 5' to 3', the first 5 letters being the upper strand, closing pairs included. Wild type: UGACCGCGAG. Varied positions (N): UNNNCGNNNG.

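Three N. benthamiana plants were inoculated with the whole mutant pool. Progeny were sequenced from the inoculated region (day 5), the margin of the inoculated leaf (day 10) and systemic leaves (day 12).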

Values are reads per thousand in the sample; higher means more abundant, 0 means not found. Each site shows the three plants. "Pool" is the share in the plasmid pool used as inoculum, on the same scale. The inoculated region was read from the minus strand, the other sites from the plus strand.

sequence,pool,inoculated region,leaf margin,systemic leaves
UACCCGUACG,0.209,0.0348 0.0898 0.111,0 0 0.0232,0 0 0
UACCCGUAGG,0.235,0.104 0.108 0.0369,0 0 0.0232,0 0 0
UACCCGUAUG,0.275,0.104 0.0719 0.111,0.359 0 0.0232,0 0 0
UACCCGUCAG,0.288,0.869 0.736 0.350,0.110 0.151 0.162,0 0 0
UACCCGUCCG,0.209,0.0869 0.0898 0.0184,0 0 0,0 0 0
UACCCGUCGG,0.157,0.104 0.0359 0.129,0 0 0.0232,0 0 0
UACCCGUCUG,0.196,0.0869 0.0539 0.0738,0 0 0.0464,0 0 0
UACCCGUGAG,0.157,0.104 0.108 0.0738,0 0 0.0232,0 0 0
UACCCGUGCG,0.248,0.0869 0.0359 0.0369,0 0 0.0232,0 0 0
UACCCGUGGG,0.170,0.156 0.216 0.0553,0.0276 0 0.0232,0 0 0
UACCCGUGUG,0.288,0.226 0.0719 0.0738,0 0 0.0464,0 0 0
UACCCGUUAG,0.340,0.139 0.126 0.0738,0 0 0,0 0 0
UACCCGUUCG,0.196,0.139 0.108 0.0369,0.0276 0 0.0232,0 0 0
UACCCGUUGG,0.340,0.0869 0.0539 0.0738,0 0 0,0 0 0
UACCCGUUUG,0.366,0.0695 0.0359 0.0553,0 0 0,0 0 0
UACCCUCGAG,0.0261,0 0 0,0 0 0,0 0 0
UACGCGAAAG,0.144,0.0869 0.0180 0.0369,0 0 0,0 0 0
UACGCGAACG,0.261,0.104 0.108 0.0553,0 0 0.0464,0 0 0
UACGCGAAGG,0.0784,0.139 0.0898 0.0369,0 0 0,0 0 0
UACGCGAAUG,0.314,0.104 0.0719 0.0369,0 0 0,0 0 0
UACGCGACAG,0.131,0.0869 0.108 0.111,0 0 0,0 0 0
UACGCGACCG,0.118,0.0695 0.108 0.0369,0 0 0,0 0 0
UACGCGACGG,0.183,0.104 0.0539 0.0922,0 0 0,0 0 0
UACGCGACUG,0.248,0.0521 0.0359 0.0922,0 0 0.0232,0 0 0
UACGCGAGAG,0.170,0.0695 0.126 0.0738,0 0 0.0232,0 0 0
UACGCGAGCG,0.222,0.191 0.0539 0.0369,0 0 0,0 0 0
UACGCGAGGG,0.196,0.0695 0.0359 0.0738,0 0 0,0 0 0
UACGCGAGUG,0.131,0.0521 0.0359 0.0922,0.0276 0 0,0 0 0
UACGCGAUAG,0.196,0.0695 0.108 0.148,0.0276 0 0.302,0 0 0
UACGCGAUCG,0.170,0.104 0.108 0.0738,0 0 0,0 0 0.0205
UACGCGAUGG,0.235,0.139 0.0359 0.0922,0.0276 0 0,0 0 0
UACGCGAUUG,0.170,0.0869 0.0719 0.0738,0 0 0,0 0 0
UACGCGCAAG,0.157,0.0521 0.108 0.203,0 0 0.0232,0 0 0
UACGCGCACG,0.196,0.104 0.0898 0.0553,0 0 0,0 0 0
UACGCGCAGG,0.105,0.0521 0 0.0369,0 0 0,0 0 0
UACGCGCAUG,0.118,0.0521 0.0898 0.0922,0 0 0,0 0 0
UACGCGCCAG,0.0915,0.0695 0.144 0.0553,0 0 0,0 0 0
UACGCGCCCG,0.170,0.0695 0.0539 0.0369,0 0 0.0232,0 0 0
UACGCGCCGG,0.144,0.0695 0.0719 0.0553,0 0 0.0232,0 0 0
UACGCGCCUG,0.222,0.0869 0.108 0.0922,0 0 0.0232,0 0 0
UACGCGCGAG,0.144,0.122 0.0898 0.0922,0.0828 0 0,0 0 0
UACGCGCGCG,0.196,0.139 0.0359 0.0369,0 0 0,0 0 0
UACGCGCGGG,0.209,0.174 0.162 0.111,0 0 0,0 0 0
UACGCGCGUG,0.235,0.0695 0.0719 0.0553,0 0 0,0 0 0
UACGCGCUAG,0.0784,0.243 0.0719 0.0369,0 0 0.0232,0 0 0
UACGCGCUCG,0.209,0.104 0.0539 0.0369,0 0 0,0 0 0.0205
UACGCGCUGG,0.157,0.0521 0.0898 0.0369,0.0276 0 0,0 0 0
UACGCGCUUG,0.183,0.156 0.0719 0.0738,0.0276 0 0,0 0 0
UACGCGGAAG,0.0915,0.0869 0.144 0.0922,0.0276 0 0.0464,0 0 0
UACGCGGACG,0.261,0.122 0.0539 0.0369,0 0 0,0 0 0
UACGCGGAGG,0.0915,0.156 0.0719 0.0922,0 0 0,0 0 0
UACGCGGAUG,0.209,0.122 0.0719 0.0369,0 0 0,0 0 0
UACGCGGCAG,0.275,0.156 0.144 0.0553,0 0 0,0 0.0606 0.0410
UACGCGGCCG,0.157,0.191 0.0719 0.0553,0 0 0,0 0 0
UACGCGGCGG,0.222,0.0521 0.0539 0.0738,0 0 0.0232,0 0 0
UACGCGGCUG,0.183,0.0869 0.0719 0.0922,0.0276 0 0.0232,0 0 0
UACGCGGGAG,0.222,0.0695 0.0898 0.0184,0 0 0,0 0 0
UACGCGGGCG,0.157,0.122 0.0898 0.0738,0 0 0,0 0 0
UACGCGGGGG,0.0261,0.122 0.144 0.0369,0 0 0,0 0 0
UACGCGGGUG,0.235,0.139 0.0719 0.0738,0 0 0,0 0 0
UACGCGGUAG,0.235,0.0695 0.0898 0.0738,0.0276 0 0,0 0 0
UACGCGGUCG,0.235,0.0869 0.0539 0.0184,0 0 0.0232,0 0 0
UACGCGGUGG,0.183,0.122 0.0359 0.129,0 0 0,0 0 0
UACGCGGUUG,0.235,0.0695 0.0359 0.0922,0 0 0,0 0 0
UACGCGUAAG,0.105,0.0348 0 0.0369,0 0 0,0 0 0
UACGCGUACG,0.196,0.209 0.0359 0.0369,0.0276 0 0.0464,0 0 0
UACGCGUAGG,0.275,0.191 0.108 0.0738,0 0 0,0 0 0
UACGCGUAUG,0.222,0.139 0.144 0.0553,0.138 0 0,0 0 0
UACGCGUCAG,0.235,0.556 0.611 0.516,0.0828 0.101 0.0696,0 0 0
UACGCGUCCG,0.183,0.122 0.108 0.0922,0.0276 0 0,0 0 0
UACGCGUCGG,0.170,0.122 0.126 0.0553,0 0 0,0 0 0
UACGCGUCUG,0.261,0.261 0.0539 0.111,0.0276 0 0.0232,0 0 0

The opening 8 entries, copied out:

sequence	pool	inoculated region	leaf margin	systemic leaves
UACCCGUACG	0.209	0.0348 0.0898 0.111	0 0 0.0232	0 0 0
UACCCGUAGG	0.235	0.104 0.108 0.0369	0 0 0.0232	0 0 0
UACCCGUAUG	0.275	0.104 0.0719 0.111	0.359 0 0.0232	0 0 0
UACCCGUCAG	0.288	0.869 0.736 0.350	0.110 0.151 0.162	0 0 0
UACCCGUCCG	0.209	0.0869 0.0898 0.0184	0 0 0	0 0 0
UACCCGUCGG	0.157	0.104 0.0359 0.129	0 0 0.0232	0 0 0
UACCCGUCUG	0.196	0.0869 0.0539 0.0738	0 0 0.0464	0 0 0
UACCCGUGAG	0.157	0.104 0.108 0.0738	0 0 0.0232	0 0 0

With 36,220-57,551 reads a sample, very low values are single reads. The authors trace changes outside the varied positions to PCR and sequencing errors or to mutation in the plant; presence does not show that a variant is infectious alone. Wild type was 20.7 per thousand in the pool and the most common sequence in every sample (inoculated region 195, 198, 203; leaf margin 629, 591, 734; systemic leaves 942, 870, 868).

Data from the supplement of Wu et al. 2024, doi:10.1371/journal.ppat.1012142.